Data on one sequence can be found in paper PMC6105893.

The exact form of at least one protein or probe is not confirmed.

The data set deals with LeuO (rLeuO) (UniProt A0A087INQ4). The data set can be described thus: EMSA. As to conditions: 0-80 nM LeuO, poly(dI-dC) 1 ug, unlabeled probe competitor 1-100 ng; 10 mM Tris-HCl pH 7.4, 10 mM KCl, 1 mM EDTA, 0.1 mM DTT, 50 ug/ml BSA, 5% glycerol, 1 ug poly(dI-dC), 10 ng probe in 20 ul, 30 min at 37 C; 6% neutral polyacrylamide gel; recombinant protein; label: 32P (vhuα-EMSAB primer); probe letters rebuilt from the primers and the genome.

On to “TGCCCTTGAAGAAATCCCTCAATCACATCTGCCGTGAGGTAAATCGTATTATAGGAGTATGGCAGCCCCTTATAAATAGGTGCTTTGAGGCTGAAATCCAAGAGCTTTATGTGGTTATTCGGTAACAATTTGTGAGTTATTACTCAGAAAACGGTTAAAAGTAAGGCATTGAAGCGAAAGAATGACGACAAACCTTTGCCAGACGGGGGCTTTATGCTTTAGAGTGAAATGAATTCGATAACCTATGAGAAGGGAAACCTAATGAACAAGACCCAATTAATCGACTTTATCGCAGAGAAAGCA (double strand) [vhuA upstream region]”, for which the binding result was “binds”.
